Publication PMC6114082, “Synthesis of aminophenylhydroxamate and aminobenzylhydroxamate derivatives and in vitro screening for antiparasitic and histone deacetylase inhibitory activity” (International Journal for Parasitology: Drugs and Drug …, 2018)

test system: HeLa nuclear extract (HDAC 1, 2, 6, and 8 predominant); experiment: Fluorometric HDAC assay, HeLa nuclear extract; format: biochemical; details: fold relative to SAHA (SAHA = 1)
Description: The HDACi effect against HeLa nuclear extracts and recombinant proteins were measured using a fluorometric HDAC assay kit (Active Motif, Belgium) according to the manufacturer's instructions. […] A negative control containing trichostatin A at a final concentration of 2 μM was analyzed for each independent experiment.

In order of falling “HDACi HeLa Fold” value:
1. COc1cccc(CC(=O)Nc2ccc(C(=O)NO)cc2)c1 [Compound 363, N-hydroxy-4-[2-(3-methoxyphenyl)acetamido]benzamide]  24.70
2. COc1cccc(CC(=O)NCc2ccc(C(=O)NO)cc2)c1 [Compound 362, N-hydroxy-4-{[2-(3-methoxyphenyl)acetamido]methyl}benzamide]  4.05
3. O=C(NO)c1ccc(NC(=O)c2cccc(F)c2)cc1 [Compound 349, 4-(3-fluorobenzamido)-N-hydroxybenzamide]  3.31
4. O=C(NO)c1ccc(NS(=O)(=O)c2cccc(F)c2)cc1 [Compound 351, 4-(3-fluorobenzenesulfonamido)-N-hydroxybenzamide]  2.38
5. Cc1nc(-c2ccc(C(=O)Nc3ccc(C(=O)NO)cc3)cc2)cs1 [Compound 361]  1.15
6. O=C(NO)c1ccc(CNS(=O)(=O)c2cccc(F)c2)cc1 [Compound 350, 4-(3-fluorobenzenesulfonamidomethyl)-N-hydroxybenzamide]  0.24

`Cc1nc(-c2ccc(C(=O)NCc3ccc(C(=O)NO)cc3)cc2)cs1` [Compound 360] was tested, and the “HDACi HeLa Fold” value was 5,29.
